From ChEMBL document CHEMBL3988442, “University of Dundee, Small-Polar-MMV Screening Library” (2021).

Mtb cholesterol medium: 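Phenotypic screen: M. tuberculosis growth, cholesterol and DPPC medium, 4 days; the read-out is not stated. Compounds at 500 µM. Higher reads as more growth inhibition (inferred: compounds with an IC50 in retests scored well above the rest). Of about 18,000 compounds tested this way, about 900 (5%) reached 50% or more in at least one test.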
Mtb glucose medium: 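Whole-cell growth test on Mycobacterium tuberculosis, read after 3 days in glucose-containing 7H9 medium; the read-out is not stated. Compounds at 500 µM. The record gives no direction; compounds that gave an IC50 in retests scored well above the rest, so higher reads as more growth inhibition. About 18,000 compounds were tested under these conditions; 7.9% (about 1,400) showed 50% or more at least once.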

Results are given as percent effect.
How 0% and 100% were set is not recorded. Most values in the screen are low, and negative values occur.
This is part of a subset picked to be rich in strong results.

{"structure": "Cc1nnc(CNC(=O)NCC(F)(F)F)n1C1CC1", "Mtb glucose medium": 46.66}
{"structure": "CN1CCCN(C(=O)C2COc3ccccc3C2)CC1", "stereo": "stereo not shown", "Mtb glucose medium": 18}
{"structure": "CSCCN(C)Cc1cn(-c2ccccc2)nn1", "Mtb glucose medium": 65.39}
{"structure": "OC1(C(F)(F)F)CCNC1", "stereo": "stereo not shown", "Mtb glucose medium": -5.269}
{"structure": "CSC1(CN)CCOCC1", "Mtb cholesterol medium": 8.795}
{"structure": "Cc1nc(C)c(C(=O)NC[C@@H]2C[C@H](F)CN2)s1", "Mtb cholesterol medium": 9.951}
{"structure": "CNC(=O)[C@@H](C)NC(=O)c1ccc(-c2ccc(C)o2)s1", "Mtb cholesterol medium": 68.2, "Mtb glucose medium": 67.9}
{"structure": "CN(Cc1ccc(S(C)(=O)=O)cc1)Cc1nccn1C", "Mtb cholesterol medium": 5.053}
{"structure": "NS(=O)(=O)c1ccc(CNC(=O)NCC(F)(F)F)cc1", "Mtb glucose medium": 8.321}
{"structure": "Cc1cc(NC(=O)CCc2cncc(F)c2)nc(=O)[nH]1", "Mtb glucose medium": -4.098}
{"structure": "CC(=O)c1csc(C)c1", "Mtb cholesterol medium": 4.011}
{"structure": "CCOCn1cnc2sccc2c1=O", "Mtb glucose medium": 2.813}
{"structure": "Cc1ccc(NC(=O)C2CCCN2)nc1", "stereo": "stereo not shown", "Mtb glucose medium": 26.02}
{"structure": "O=C(NCc1cccc2c1OCO2)c1cccnc1O", "Mtb glucose medium": 9.652}
{"structure": "NS(=O)(=O)c1ccc(NC(=O)COC(=O)C2CC2)cc1", "Mtb glucose medium": 19}
{"structure": "CCCNC(=O)CCNC(=O)c1ccc(O)cc1C", "Mtb glucose medium": 11.96}
{"structure": "NC1CCN(CCN2CCOCC2)C1", "stereo": "stereo not shown", "Mtb cholesterol medium": -25.39}
{"structure": "Nc1ccsc1C(=O)N1CC[C@@H](N)[C@H](O)C1", "Mtb glucose medium": 19.2}
{"structure": "CNC(=O)CSCCC1CCCCN1C", "stereo": "stereo not shown", "Mtb glucose medium": -7.147}
{"structure": "c1coc(-c2ccncc2)c1", "Mtb cholesterol medium": -10.24}
{"structure": "COC(=O)N1CCN(c2ccccn2)CC1", "Mtb cholesterol medium": 52.17, "Mtb glucose medium": 49.39}
{"structure": "Cc1noc(C)c1S(=O)(=O)NCCCN1CCCC1=O", "Mtb glucose medium": 14.84}
{"structure": "O=C(NC(C1CC1)C1CC1)N1CCC2(CC1)OCCO2", "Mtb glucose medium": -18.25}
{"structure": "O=C(NCCCN1CCCCC1)c1ccccc1", "Mtb glucose medium": 0.326}
{"structure": "CCNS(=O)(=O)C1CCN(Cc2cc(C#N)cs2)C1", "stereo": "stereo not shown", "Mtb glucose medium": 37.04}
{"structure": "CNc1cccc(S(C)(=O)=O)c1", "Mtb glucose medium": 6.956}
{"structure": "CS(=O)(=O)CCS(=O)(=O)CC=Cc1ccccc1", "Mtb cholesterol medium": -2.282}
{"structure": "CN(CC(=O)Nc1sccc1C(N)=O)Cc1cccs1", "Mtb cholesterol medium": 67.4, "Mtb glucose medium": 74.28}
{"structure": "CC1CCCCN1CC(N)=O", "stereo": "stereo not shown", "Mtb glucose medium": -0.8524}
{"structure": "CSCc1cccc(CNC(=O)c2cc[nH]n2)c1", "Mtb cholesterol medium": 50.79, "Mtb glucose medium": 71.8}
{"structure": "NCc1cccc(N2CCCC2=O)c1", "Mtb glucose medium": 6.644}
{"structure": "CNCC(=O)N1CCCc2ccccc21", "Mtb glucose medium": -5.84}
{"structure": "Nc1ccc(-c2ccc(CN3CCCCC3)cn2)cn1", "Mtb glucose medium": 10.2}
{"structure": "CC(C)c1cccc(NC(=O)CN)c1", "Mtb cholesterol medium": 22.67, "Mtb glucose medium": 35.43}
{"structure": "CC1c2ccsc2CCN1CCS(C)(=O)=O", "stereo": "stereo not shown", "Mtb cholesterol medium": 43.11, "Mtb glucose medium": 25.17}
{"structure": "Cn1nnnc1SCCNCc1ccc(F)cc1", "Mtb cholesterol medium": 43.1, "Mtb glucose medium": 21.18}
{"structure": "Cc1cc(C(=O)N2C[C@@H](CO)[C@H](N(C)C)C2)on1", "Mtb glucose medium": 7.206}
{"structure": "CN(C)c1cc(CNC(=O)c2ccc(Br)o2)ccn1", "Mtb glucose medium": 58.36}
{"structure": "CC(C)NC(=O)NCCN1CCNCC1", "Mtb glucose medium": 11.25}
{"structure": "CCOc1ccc(C(C)=O)cc1N1C(=O)C=CC1=O", "Mtb cholesterol medium": 12.44, "Mtb glucose medium": -0.6525}
{"structure": "CCC(C(=O)Nc1ncccc1O)N(C)C", "stereo": "stereo not shown", "Mtb cholesterol medium": -21.24, "Mtb glucose medium": -5.734}
{"structure": "CC(C)(C)NC(=O)CNc1c(F)cc(C#N)cc1F", "Mtb cholesterol medium": 19.72}
{"structure": "CC(C)CC(=O)Nc1ccc(N2CCN(C)CC2)cc1", "Mtb glucose medium": 6.678}

Once more, the final 3:

Result for CCC(C(=O)Nc1ncccc1O)N(C)C (stereo not shown) was Mtb cholesterol medium: -21.24%; Mtb glucose medium: -5.734%.
Result for CC(C)(C)NC(=O)CNc1c(F)cc(C#N)cc1F was Mtb cholesterol medium: 19.72%.
Result for CC(C)CC(=O)Nc1ccc(N2CCN(C)CC2)cc1 was Mtb glucose medium: 6.678%.